Test system: Eμ-Mycp19^Arf−/− mouse lymphoma cells
Test: Drug treatment and FACS viability (propidium iodide) to determine LD80-90
Format: cell-based

Structure (SMILES): O=P1(N(CCCl)CCCl)NC(SCCS(=O)(=O)O)CCO1 (stereo not shown) [Maphosphamide]
- Concentration used (LD80-90): 6.9 µM

Reference: patent publication US9683231B2, “RNAi-based method of drug screening and characterization” (Massachusetts Institute of Technology, priority 2010, dated 2017)
